The data set is described as follows: Fluorescence properties in MeOH and H2O. As to conditions: excitation at 305 nm.

The structures appear in SMILES notation.

For the compound `CCN(CC)CC.Nc1nc(-c2ccccc2)cc2c1nnn2[C@@H]1O[C@H](COS(=O)(=O)NC(=O)c2ccccc2O)[C@@H](O)[C@H]1O` [Compound 6a, 4-Amino-1-{5-O-[N-(2-hydroxybenzoyl)sulfamoyl]-β-D-ribofuranosyl}-6-phenyl-1H-[1,2,3]triazole[4,5-c]pyridine triethylammonium salt], the “Fluorescence emission λmax (H2O)” value was found to be 433 nm and the “Fluorescence emission λmax (MeOH)” value came out at 419 nm.
The corresponding values for `CCN(CC)CC.Cc1ccc(-c2cc3c(nnn3[C@@H]3O[C@H](COS(=O)(=O)NC(=O)c4ccccc4O)[C@@H](O)[C@H]3O)c(N)n2)cc1` [Compound 6b, 4-Amino-1-{5-O-[N-(2-hydroxybenzoyl)sulfamoyl]-β-D-ribofuranosyl}-6-(4-methylphenyl)-1H-[1,2,3]triazole[4,5-c]pyridine triethylammonium salt] are 433 nm and 412 nm.
The corresponding values for `CCN(CC)CC.Nc1nc(-c2ccc(F)cc2)cc2c1nnn2[C@@H]1O[C@H](COS(=O)(=O)NC(=O)c2ccccc2O)[C@@H](O)[C@H]1O` [Compound 6c, 4-Amino-6-(4-fluorophenyl)-1-{5-O-[N-(2-hydroxybenzoyl)sulfamoyl]-β-D-ribofuranosyl}-1H-[1,2,3]triazole[4,5-c]pyridine triethylammonium salt] are 442 nm and 420 nm.
The corresponding values for `CCN(CC)CC.Nc1nc(-c2ccc(C(F)(F)F)cc2)cc2c1nnn2[C@@H]1O[C@H](COS(=O)(=O)NC(=O)c2ccccc2O)[C@@H](O)[C@H]1O` [Compound 6d, 4-Amino-1-{5-O-[N-(2-hydroxybenzoyl)sulfamoyl]-β-D-ribofuranosyl}-6-(4-trifluoromethylphenyl)-1H-[1,2,3]triazole[4,5-c]pyridine triethylammonium salt] are 422 nm and 409 nm.
As to `CCN(CC)CC.Nc1nc(-c2ccc3ccccc3c2)cc2c1nnn2[C@@H]1O[C@H](COS(=O)(=O)NC(=O)c2ccccc2O)[C@@H](O)[C@H]1O` [Compound 6e, 4-Amino-1-{5-O-[N-(2-hydroxybenzoyl)sulfamoyl]-β-D-ribofuranosyl}-6-(napht-2-yl)-1H-[1,2,3]triazole[4,5-c]pyridine triethylammonium salt], the “Fluorescence emission λmax (H2O)” value was determined as 420 nm and the “Fluorescence emission λmax (MeOH)” value was 412 nm.
The corresponding values for `CCN(CC)CC.COc1ccc2cc(-c3cc4c(nnn4[C@@H]4O[C@H](COS(=O)(=O)NC(=O)c5ccccc5O)[C@@H](O)[C@H]4O)c(N)n3)ccc2c1` [Compound 6f, 4-Amino-1-{5-O-[N-(2-hydroxybenzoyl)sulfamoyl]-β-D-ribofuranosyl}-6-(6-methoxynapht-2-yl)-1H-[1,2,3]triazole[4,5-c]pyridine triethylammonium salt] are 425 nm and 418 nm.

The values are drawn from publication PMC4914392 (Bioorganic & medicinal chemistry, 2016).
